Compound potency records, mixed from different reports. Data source: NIAID ChemDB in PubChem.

All rows: growth or infection tests; species: HIV-1; read by: RT activity; endpoint: EC50

Lines come from different laboratories, so protocols vary. ECn is the concentration giving n% inhibition of infection, replication or growth. Blank or dashed fields: not listed here.

smiles | mutations | conditions | cell line | strain | value
COc1cc(C[C@H]2C(=O)OC[C@@H]2Cc2ccc(OC)c(OC)c2)ccc1O | - | - | H9 | IIIB | <0.13 µM
CC(C)CN(C[C@@H](O)[C@H](Cc1ccccc1)NC(=O)[C@H](CC(N)=O)NC(=O)c1ccc2ccccc2n1)C(=O)NC(C)(C)C | - | - | MT-2 | MN | 0.088 µM
Nc1ncnc2c1ncn2[C@@H]1C=C[C@H](CO)O1 | - | - | PBMC | LAV | 0.38 µM
CC(C)CN(C[C@@H](O)[C@H](Cc1ccccc1)NC(=O)O[C@H]1CCOC1)S(=O)(=O)c1ccc(N)cc1 | - | - | PBMC | IIIB | 0.026 µM
CCCc1cc(=O)oc2c3c(c4c(c12)OC(C)(C)C=C4)O[C@H](C)[C@@H](C)[C@@H]3O | - | - | CEM + CEM-SS | RF | 0.07 µM
CC(C)=CCN1Cc2cc(Cl)cc3[nH]c(=S)n(c23)C[C@@H]1C | - | - | MT-4 | IIIB | 0.33 µM
Cc1cn([C@H]2C[C@H](N=[N+]=[N-])[C@@H](CO)O2)c(=O)[nH]c1=O | - | - | CEM + CEM TK- | LAI | >100 µM
Cc1cn([C@H]2C[C@H](N=[N+]=[N-])[C@@H](COP(=O)(OCCSC(=O)C(C)(C)C)OCCSC(=O)C(C)(C)C)O2)c(=O)[nH]c1=O | - | - | CEM + CEM TK- | LAI | 0.45 µM
Nc1nc(=O)n([C@@H]2CO[C@H](CO)S2)cc1F | - | - | CBMC | HXB2D | 4.25 µM
COc1ccc(C[C@H](NC(=O)c2cccc(O)c2C)[C@H](O)C(=O)N2CSC(C)(C)[C@H]2C(=O)NCc2ccccc2C)cc1 | PR-L10R M46I L63P A71V V82T I84V | - | PBMC | 052-52 PI-resistant | 0.033 µM
COc1cc([C@@H]2c3cc4c(cc3[C@H](O)[C@H]3COC(=O)[C@H]23)OCO4)cc(OC)c1OC | - | - | H9 | IIIB | <0.007 µM
CCc1cc(COCc2ccc3ccccc3c2)c(=O)[nH]c1C | - | - | CEM + CEM-SS | LAI | >10 µM
CCCCCc1cc2cn(COCCO)c(=O)nc2o1 | - | - | PBMC | LAI | 2.7 µM
CC(C)(C)C(=O)SCCOP(=O)(OCCSC(=O)C(C)(C)C)OC[C@@H]1CC[C@H](n2cnc3c(N)ncnc32)O1 | - | - | CEM + CEM TK- | LAI | 0.0011 µM
Fc1cccc(F)c1C1SCc2nc3ccccc3n21 | - | - | U-937 | RF | 0.52 µM
Cc1cn([C@H]2C[C@H]3COC[C@H]3O2)c(=O)[nH]c1=O | - | - | PBMC | LAV | >100 µM
Nc1nc2c(ncn2[C@@H]2C[C@H](OCP(=O)(O)O)CC2(F)F)c(=O)[nH]1 | - | - | PBMC | LAI | 43 µM
CCCc1cc(=O)oc2c3c(c4c(c12)OC(C)(C)CC4)O[C@H](C)[C@@H](C)[C@@H]3O | - | - | CEM + CEM-SS | RF | 0.13 µM
Cn1c(N)nc2c(ncn2[C@H]2CO[C@@H](CO)O2)c1=O | - | - | PBMC | LAI | 14.2 µM
CCOn1c(C)nc2c(C)cccc21 | - | - | C8166 | IIIB | 8 µM
CCOCn1c([Se]c2ccccc2)c(CC)c(=O)[nH]c1=O | - | - | PBMC | LAV | 0.017 µM
O=c1ccn([C@@H]2O[C@H](CO)C3(CO3)[C@H]2O)c(=O)[nH]1 | - | - | A301 + A3.01 | - | 22 µM
CCc1cc(COCc2ccc3ccccc3c2)c(OC)nc1C | - | - | CEM + CEM-SS | LAI | >10 µM
COc1cccc(C[C@H](NC(=O)c2cccc(O)c2C)[C@H](O)C(=O)N2CSC(C)(C)[C@H]2C(=O)NCc2c(C)cccc2C)c1 | PR-L10I M46I I54V L63P A71V V82A L90M | - | PBMC | 1026-40 PI-resistant | 0.0089 µM
O=c1nc2oc(-c3ccccc3)cc2cn1COCCO | - | - | PBMC | LAI | >100 µM
CCO/N=C(/c1ccco1)c1c(CC)nc2sccn12 | - | - | CEM + CEM-SS | LAI | 16 µM
Nc1nc(=O)n([C@@H]2CO[C@H](CO)S2)cc1F | - | - | MT-2 | HXB2D | 6.6 µM
COc1ccc(C(=O)N2CCN(c3ccc4c(c3)CCC(=O)N4)CC2)cc1OC | - | - | U-937/HIV-1(IIIB) + U-937 | IIIB | ~10 µg/mL
COc1cc2c(cc1Cc1cccc(Cl)c1F)c(=O)c(C(=O)O)cn2[C@H](CO)C(C)C | - | - | PBMC | BaL | 0.0021 µM
CCc1nc2ccccn2c1C(=O)c1cccs1 | - | - | U1 | - | >100 µM
CC[C@H]1OC(=O)[C@H](C)[C@@H](O[C@H]2C[C@@](C)(OC)[C@@H](O)[C@H](C)O2)[C@H](C)[C@@H](O[C@@H]2O[C@H](C)C[C@H](N(C)C)[C@H]2O)[C@](C)(O)C[C@@H](C)C(=O)[C@H](C)[C@@H](O)[C@]1(C)O | - | - | PBMC | LAV | <1000 µg/mL
CCCCCc1ccc(-c2cc3cn(C/C=C/C(O)CO)c(=O)nc3o2)cc1 | - | - | PBMC | LAI | 36.7 µM
CCc1cc(COCc2cccc(F)c2)c(OC)nc1C | - | - | CEM + CEM-SS | LAI | >10 µM
Cc1cn([C@@H]2C=C[C@H](CO)O2)c(=O)[nH]c1=O | - | - | PBMC | LAV | >100 µM
Cc1cn([C@H]2C[C@H](N=[N+]=[N-])[C@@H](CO)O2)c(=O)[nH]c1=O | - | - | CBMC | 1075 (AZT-resistant) | 0.25 µM
CCOCn1c([Se]c2ccccc2)c(F)c(=O)[nH]c1=O | - | - | PBMC | LAV | 18.2 µM
Nc1nc(NC2CC2)c2ncn([C@H]3CO[C@@H](CO)O3)c2n1 | - | - | PBMC | LAI | 0.85 µM
COc1ccc2nc(C=C(C)C)n(OCC=C(C)C)c2c1 | - | - | C8166 | IIIB | 16 µM
Nc1ncnc2c1ncn2[C@H]1CC[C@@H](CO)O1 | - | - | C8166 | HXBc2 | <2 µM
CCc1cc(COCc2cccc3ccccc23)c(OC)nc1C | - | - | CEM + CEM-SS | LAI | >10 µM
O=Nc1c(-c2c(O)[nH]c3ccccc23)[nH]c2ccccc12 | - | - | PBMC | IIIB X4 | 0.5 µM
Cc1c(Sc2ccccc2)n(COCCO)c(=O)[nH]c1=O | - | - | CEM + CEM-SS | LAI | 2 µM
Cc1ccnc2c1NC(=O)c1cccnc1N2C1CC1 | RT-D67G | - | CBMC | HxB2D(RT-D67G) | 0.013 µM
Cc1cn([C@H]2C[C@H](N=[N+]=[N-])[C@@H](CO)O2)c(=O)[nH]c1=O | - | - | C8166 | IIIB | 0.016 µM
CCc1cc(COCc2ccc(C)cc2)c(=O)[nH]c1C | - | - | CEM + CEM-SS | LAI | >100 µM
Cc1cccc(C)c1OCC(=O)N[C@@H](Cc1ccccc1)[C@@H](O)C[C@H](Cc1ccccc1)NC(=O)[C@H](C(C)C)N1CCCNC1=O | PR-L10I M46I I54V L63P V82F L90M | - | PBMC | 1002-60 PI-resistant | 0.573 µM
CCc1cc(COCc2ccc(Br)cc2)c(=O)[nH]c1C | - | - | CEM + CEM-SS | LAI | >10 µM
CCc1nc2ccccn2c1C(=O)c1ccco1 | - | - | MT-4 | IIIB | 18 µM
C[C@]12CC[C@H](O)C[C@@H]1CC[C@@H]1[C@@H]2CC[C@]2(C)C(=O)[C@H](Br)C[C@@H]12 | - | - | PBMC | LAV | 3.7 µM
Cc1cn([C@H]2C[C@H](N=[N+]=[N-])[C@@H](CO)O2)c(=O)[nH]c1=O | - | - | ACH-2(HIV-1(IIIB)) + ACH2 | IIIB | >1 µg/mL
CCc1cc(COCc2ccc(C)cc2)c(OC)nc1C | - | - | CEM + CEM-SS | LAI | >10 µM
O[C@H]1OC[C@H](Cc2ccc3c(c2)OCO3)[C@H]1Cc1ccc2c(c1)OCO2 | - | - | H9 | IIIB | <12.7 µM
CCOP(=O)(C[C@@H]1C[C@H](n2cc(C)c(=O)[nH]c2=O)O[C@@H]1CO)OCC | - | - | PBMC | LAV | 32 µM
CCCCCCCCCCCCCCCCO[C@H](CCl)COP(=O)(O)OCC[N+](C)(C)C | - | - | H9 | IIIB | <1 µM
CC(=O)c1cn(C/C=C/C(O)CO)c(=O)[nH]c1=O | - | - | PBMC | LAI | >100 µM
Cc1ccnc2c1NC(=O)c1cccnc1N2C1CC1 | K103N + Y181C | pseudotyped | - | - | >10 µM
Cc1ccccc1CNC(=O)[C@H]1N(C(=O)[C@@H](O)[C@H](Cc2ccccc2)NC(=O)c2cccc(O)c2C)CSC1(C)C | PR-L10I M46I I54V L63P V82F L90M | - | PBMC | 1002-60 PI-resistant | 0.037 µM
CC(C)Nc1nc(N)nc2c1ncn2[C@H]1CO[C@@H](CO)O1 | - | - | PBMC | LAI | 5.4 µM
CCOP(=O)(CO[C@H]1C[C@@H](n2cnc3c(N)nc(F)nc32)C(F)(F)C1)OCC | - | - | PBMC | LAI | 81 µM
Cc1cn([C@@H]2C[C@@H](N=[N+]=[N-])[C@H](COP(N)(=O)OC[C@H]3O[C@@H](n4cc(C)c(=O)[nH]c4=O)C[C@@H]3N=[N+]=[N-])O2)c(=O)[nH]c1=O | - | - | CEM + CEM TK- | LAI | >100 µM
Cc1cn([C@H]2C[C@H](N=[N+]=[N-])[C@@H](CO)O2)c(=O)[nH]c1=O | - | - | PBMC | LAI Laboratory isolate | 0.004 µM
O=C(O)c1cc(O)cc(O)c1N=Nc1ccc(/C=C/c2ccc(N=Nc3c(O)cc(O)cc3C(=O)O)cc2S(=O)(=O)O)c(S(=O)(=O)O)c1 | - | chronic infection | H9 | IIIB | >100 µg/mL
CN1N=C(N)c2cn([C@@H]3O[C@H](COP(=O)(O)O)[C@@H](O)[C@H]3O)c3ncnc1c23 | - | - | H9 | - | 0.05 µM
COc1ccccc1-c1noc(=O)n1-c1cccc(C(F)(F)F)c1 | - | - | MDM | ADA R5 | 0.05 µM
CCCCCOn1c(CCCC)nc2c(C)cccc21 | - | - | C8166 | IIIB | 8 µM
CCN(CC)C(=O)OCC1CN(C(=O)c2cc(OC)c(OC)c(OC)c2)CCN1C(=O)c1cc(OC)c(OC)c(OC)c1 | - | - | Macrophage + Monocytes/macrophages | BaL | 10 µM
C=CCOn1c(C=C)nc2ccc(C)cc21 | - | - | C8166 | IIIB | 16 µM
Cc1cn([C@H]2C[C@H](N=[N+]=[N-])[C@@H](CO)O2)c(=O)[nH]c1=O | - | - | PBL | IIIB | 0.09 µM
Nc1nc2c(ncn2COCCO)c(=O)[nH]1 | - | - | PBMC | LAI | >100 µM
CCOP(=O)(CO[C@H]1C[C@@H](n2cnc3c(Cl)nc(N)nc32)C(F)(F)C1)OCC | - | - | PBMC | LAI | 68 µM
Nc1nc(NCc2ccccc2)c2ncn([C@H]3CO[C@@H](CO)O3)c2n1 | - | - | PBMC | LAI | 44.9 µM
CC(C)(C)C(=O)SCCCCOP(=O)(OCCCCSC(=O)C(C)(C)C)OC[C@@H]1CC[C@H](n2cnc3c(N)ncnc32)O1 | - | - | CEM + CEM-SS | LAI | >10 µM
Cc1cn([C@H]2C[C@H](N=[N+]=[N-])[C@@H](CO)O2)c(=O)[nH]c1=O | - | - | CEM + CEM TK- | LAI | >100 µM
CC(C)CN(C[C@@H](O)[C@H](Cc1ccccc1)NC(=O)O[C@H]1CCOC1)S(=O)(=O)c1ccc(N)cc1 | - | - | CEM | - | <0.04 µg/mL
Nc1nc(=O)n([C@H]2CO[C@@H](CO)S2)cc1F | RT-M184I | - | MT-4 | HXB2D(RT-M184I) | 18 µM
O=c1[nH]cnc2c1ncn2[C@H]1CC[C@@H](CO)O1 | - | - | PBL | IIIB | 16 µM
COc1ccc(C[C@H]2COC(=O)[C@@H]2Cc2ccc(O[C@@H]3O[C@H](CO)[C@@H](O)[C@H](O)[C@H]3O)c(OC)c2)cc1OC | - | - | H9 | IIIB | <5 µM
CC(C)=CCOn1c(C=C(C)C)nc2ccc(C)cc21 | - | - | C8166 | IIIB | 10 µM
CC(C)[C@H](N)C(=O)OC[C@@H]1OC[C@H](n2cnc3c(N)nc(N)nc32)O1 | - | - | PBMC | LAI | 1.7 µM
CC(C)(C)NC(=O)[C@@H]1C[C@@H]2CCCC[C@@H]2CN1C[C@@H](O)[C@H](Cc1ccccc1)NC(=O)[C@H](CC(N)=O)NC(=O)c1ccc2ccccc2n1 | - | - | PBL | LAI | 0.01 µM

Again, the opening 6 rows:

smiles | mutations | conditions | cell line | strain | value
COc1cc(C[C@H]2C(=O)OC[C@@H]2Cc2ccc(OC)c(OC)c2)ccc1O | - | - | H9 | IIIB | <0.13 µM
CC(C)CN(C[C@@H](O)[C@H](Cc1ccccc1)NC(=O)[C@H](CC(N)=O)NC(=O)c1ccc2ccccc2n1)C(=O)NC(C)(C)C | - | - | MT-2 | MN | 0.088 µM
Nc1ncnc2c1ncn2[C@@H]1C=C[C@H](CO)O1 | - | - | PBMC | LAV | 0.38 µM
CC(C)CN(C[C@@H](O)[C@H](Cc1ccccc1)NC(=O)O[C@H]1CCOC1)S(=O)(=O)c1ccc(N)cc1 | - | - | PBMC | IIIB | 0.026 µM
CCCc1cc(=O)oc2c3c(c4c(c12)OC(C)(C)C=C4)O[C@H](C)[C@@H](C)[C@@H]3O | - | - | CEM + CEM-SS | RF | 0.07 µM
CC(C)=CCN1Cc2cc(Cl)cc3[nH]c(=S)n(c23)C[C@@H]1C | - | - | MT-4 | IIIB | 0.33 µM